Compound potency records, mixed from different reports. Data source: NIAID ChemDB in PubChem.

Shared fields: target-level tests; agent: HIV-1; protein: Reverse transcriptase; read by: nucleotide incorporation / radiometric; measure: IC50

a–b is a range or a potency band. ICn is the concentration giving n% inhibition. Neighbouring rows are from separate reports. An empty or dashed field is not shown.

structure | strain | mutations | value
CCN1c2ncc(CCOc3ccc(-c4ccncc4)cc3C)cc2C(=O)N(C)c2cccnc21 | IIIB | RT-K103N Y181C | <0.05 µM
CCN1c2ncc(CCOc3cccc4c3ccc[n+]4[O-])cc2C(=O)N(C)c2ccc(Cl)nc21 | IIIB | - | 0.01 µM
CCN1c2ncc(CCOc3ccc(CC(=O)O)c4c3CCCC4)cc2C(=O)N(C)c2ccc(F)nc21 | - | RT-V106A | >1 µM
NS(=O)(=O)c1ccc(NC(=O)CSc2nnc(Br)n2-c2ccc(F)c3ccccc23)c(Cl)c1 | - | - | <0.05 µM
Cc1ccc(-n2c(SCC(=O)Nc3ccc(C(=O)O)cc3Cl)nnc2C(F)F)c2c1CCCC2 | - | RT-Y181C | <0.05 µM
CCN1c2ncc(CCOc3ccc(C(=O)Nc4ccc(C(=O)O)cc4)cc3C)cc2C(=O)N(C)c2cccnc21 | IIIB | - | <0.05 µM
CCc1ccc(-n2c(Br)nnc2SCC(=O)Nc2ccc(C(=O)NCC(=O)OC)cc2Cl)c2ccccc12 | - | - | <0.05 µM
CCN1c2ncc(CCOc3ccc(CC(=O)NN)c4ccccc34)cc2C(=O)N(C)c2ccc(Cl)nc21 | - | RT-K103N Y181C | <0.1 µM
NS(=O)(=O)c1ccc(NC(=O)CSc2nnc(C(F)F)n2-c2ccc(C3CCCC3)c3ccccc23)c(Cl)c1 | - | RT-Y188L | >0.1 µM
O=C(CSc1nnc(Br)n1-c1ccc(C2CC2)cc1Cl)Nc1ccc(C(=O)O)cc1Cl | - | - | <0.05 µM
CCc1ccc(-n2c(SCC(=O)Nc3ccc(S(N)(=O)=O)cc3C)nnc2C(F)F)c2ccccc12 | - | RT-Y188L | >0.1 µM
CCN1c2ncc(CCOc3ccc(NC(=O)CCC(=O)O)c4ccccc34)cc2C(=O)N(C)c2cccnc21 | - | RT-V106A | >1 µM
O=C(CSc1nnc(Br)n1-c1ccc(C2CC2)cc1C(F)(F)F)Nc1ccc(C(=O)O)cc1Cl | - | RT-Y181C | 0.05–0.1 µM
CCN1c2ncc(CCOc3ccc(C(=O)N(C)c4ccc(C(=O)O)cc4)cc3C)cc2C(=O)N(C)c2cccnc21 | IIIB | RT-K103N Y181C | 0.05–0.1 µM
CCc1ccc(-n2c(CF)nnc2SCC(=O)Nc2ccc(C(=O)O)cc2Cl)c2ccccc12 | - | RT-Y181C | <0.05 µM
CCN1c2ncc(CCOc3ccc(C(=O)Nc4nc(CC(=O)O)cs4)cc3C)cc2C(=O)N(C)c2cccnc21 | IIIB | RT-K103N Y181C | <0.05 µM
Cc1cc(S(=O)(=O)O)ccc1NC(=O)CSc1nnc(C(F)F)n1-c1ccc(C)c2c1CCCC2 | - | - | <0.05 µM
CCN1c2ncc(CCOc3ccc(C(=O)O)c4ccccc34)cc2C(=O)Nc2c(C)cc(F)nc21 | - | RT-Y188L | >1 µM
CCc1ccc(-n2c(SCC(=O)Nc3ccc(C(=O)O)cc3C)nnc2C(F)F)c2ccccc12 | - | RT-Y181C | >0.1 µM
CCN1c2ncc(CCOc3ccc(-c4cccnc4C)cc3C)cc2C(=O)N(C)c2cccnc21 | IIIB | RT-K103N Y181C | <0.05 µM
NS(=O)(=O)c1ccc(NC(=O)CSc2nnc(Br)n2-c2ccc(C3CCC3)c3ccccc23)c(Cl)c1 | - | RT-Y188L | <0.05 µM
O=C(CSc1nnc(Br)n1-c1c(Cl)cc(C2CCC2)c2ccccc12)Nc1ccc(C(=O)O)cc1Cl | - | RT-Y188L | 0.05–0.1 µM
CCc1ccc(-n2c(CF)nnc2SCC(=O)Nc2ccc(S(N)(=O)=O)cc2Cl)c2c1CCCC2 | - | - | <0.05 µM
CCc1ccc(-n2c(Br)nnc2SCC(=O)Nc2ccc(C(=O)N[C@@H](CO)C(=O)OC)cc2Cl)c2ccccc12 | - | RT-Y181C | <0.05 µM
CCNC(=O)c1ccc(NC(=O)CSc2nnc(Br)n2-c2ccc(CC)c3ccccc23)c(Cl)c1 | - | - | <0.05 µM
CCN1c2ncc(CCOc3ccc(-c4ccc(CC(=O)O)cc4)cc3CO)cc2C(=O)N(C)c2cccnc21 | IIIB | RT-K103N Y181C | <0.05 µM
COc1ccc2c(C)ccc(-n3c(Br)nnc3SCC(=O)Nc3ccc(C(=O)O)cc3Cl)c2c1 | - | RT-Y181C | <0.05 µM
CCN1c2ncc(CCOc3ccc(NC(C)=O)cc3C)cc2C(=O)N(C)c2cccnc21 | IIIB | - | <0.05 µM
CCc1ccc(-n2c(Br)nnc2SCC(=O)Nc2ccc(C(=O)O)cc2C)c2ccccc12 | - | RT-Y188L | >0.1 µM
O=C(CSc1nnc(Br)n1-c1ccc(C2CC2)c2ccccc12)Nc1ccc(C(=O)N[C@@H](Cc2ccc(O)cc2)C(=O)O)cc1Cl | - | RT-Y181C | <0.05 µM
CCN1c2ncc(CCOc3ccc(-c4ccncc4)cc3)cc2C(=O)N(C)c2cccnc21 | IIIB | - | <0.05 µM

Again, the opening 2 rows:

structure | strain | mutations | value
CCN1c2ncc(CCOc3ccc(-c4ccncc4)cc3C)cc2C(=O)N(C)c2cccnc21 | IIIB | RT-K103N Y181C | <0.05 µM
CCN1c2ncc(CCOc3cccc4c3ccc[n+]4[O-])cc2C(=O)N(C)c2ccc(Cl)nc21 | IIIB | - | 0.01 µM